Anti-infective test results gathered from many reports (values: NIAID ChemDB through PubChem).

Shared fields: whole-cell or culture tests; organism: Varicella zoster virus; cells: HEL; endpoint: EC50

Lines come from different laboratories, so protocols vary.

structure | strain or isolate | method | result
Nc1nc2c(ncn2[C@H]2C=C[C@@H](CO)CC2)c(=O)[nH]1 | YS (TK+) | plaque count | 0.12 µg/mL
Nc1nc(N)c2ncn(C[C@H]3CC[C@@H](CO)C3)c2n1 | OKA | plaque count | >50 µg/mL
O=c1[nH]c(=O)n([C@@H]2O[C@H](CO)[C@@H](O)[C@@H]2O)cc1/C=C/Br | YS | plaque count | 0.002 µM
C[C@H]1C[C@@H](n2cnc3c(N)ncnc32)[C@H](O)[C@@H]1O | YS | cytopathic effect | 12 µg/mL
O=c1[nH]c(=O)n([C@H]2C[C@H](O)[C@@H](CO)O2)cc1-c1ccc(Cl)s1 | 07/1 (TK-) | plaque count | >58 µM
Nc1nc(Cl)c2nnn(C[C@H]3CC[C@@H](CO)C3)c2n1 | YS | plaque count | >200 µg/mL
O=c1[nH]c(=O)n([C@@H]2O[C@H](CO)[C@@H](O)[C@@H]2O)cc1/C=C/Cl |  | plaque count | 0.0056 µM
Nc1ncnc2c1ncn2C[C@H]1COP(=O)(O)CO1 | 07/1 (TK-) | plaque count | 0.32 µM
O=c1[nH]c(=O)n([C@H]2C[C@H](O)[C@@H](CO)O2)cc1/C=C/Br | 07/1 (TK-) | plaque count | 10 µg/mL
O=c1[nH]c(=O)n([C@@H]2O[C@H](CO)[C@@H](O)[C@@H]2O)cc1/C=C/Br | PMEA-resistant | plaque count | 0.00011 µg/mL
Nc1nc(N)c2nnn(C[C@H]3CC[C@@H](CO)C3)c2n1 | YS | plaque count | >50 µg/mL
C#Cc1cn([C@H]2C[C@H](O)[C@@H](CO)O2)c(=O)[nH]c1=O |  | plaque count | 0.4 µM
Nc1nc2c(ncn2COCCO)c(=O)[nH]1 | YS | plaque count | 4 µM
Nc1ncnc2c1ncn2CCOCP(=O)(O)O | Oka CF1743-resistant | cytopathic effect | 8.5 µM
Nc1nc(Cl)c2ncn(C[C@H]3CC[C@@H](CO)C3)c2n1 | YS | plaque count | >20 µg/mL
CCc1cn([C@H]2C[C@H](O)[C@@H](CO)O2)c(=O)[nH]c1=O |  | plaque count | >625 µM
Nc1nc2c(ncn2[C@@H]2C=C[C@H](CO)CC2)c(=O)[nH]1 | 07/1 (TK-) | plaque count | 2.1 µg/mL
C[C@H](Cn1cnc2c(N)ncnc21)OCP(=O)(O)O | YS | plaque count | >50 µM
Nc1nc2c(ncn2CCC(CO)CO)c(=O)[nH]1 | PFA-resistant/A | plaque count | 1.67 µg/mL
Nc1ncnc2c1ncn2CCOCP(=O)(O)O | YS | plaque count | 23.7 µM
Nc1ncc2c(ncn2COC(CO)CO)n1 | 07/1 (TK-) | plaque count | 0.7 µM
O=C(O)P(=O)(O)O | OKA | plaque count | 12 µg/mL
Nc1nc2c(ncn2[C@@H]2C[C@H](CO)[C@H]2CO)c(=O)[nH]1 | YS | plaque count | 0.6 µM
O=C(O)CP(=O)(O)O | ACV-resistant | plaque count | 6.4 µg/mL
O=c1[nH]c(=O)n([C@@H]2O[C@H](CO)[C@@H](O)[C@@H]2O)cc1C=C(Br)Br |  | plaque count | 18.8 µM

The last 3 rows once more:

structure,strain or isolate,method,result
Nc1nc2c(ncn2[C@@H]2C[C@H](CO)[C@H]2CO)c(=O)[nH]1,YS,plaque count,0.6 µM
O=C(O)CP(=O)(O)O,ACV-resistant,plaque count,6.4 µg/mL
O=c1[nH]c(=O)n([C@@H]2O[C@H](CO)[C@@H](O)[C@@H]2O)cc1C=C(Br)Br,,plaque count,18.8 µM

Blank or dashed fields: not listed here. ECn is the concentration giving n% inhibition of infection, replication or growth.